Data source: PubChem BioAssay AID504761 (Drosophila RNAi Screening Center, 2011)
In all, the deposit lists about 22,000 reagents; this is an unselected part of those with a known target gene and a result. Over the whole deposit, 116 (0.52%) were called active. 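Calls depend on retest data that are not deposited; infection was ranked per plate without normalising between plates; the unit of the infection score is not given.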 Raw values are not corrected between plates. The record does not give: the amount of reagent, the time to read-out.

Purpose: 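Insect host genes that dengue virus relies on to spread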 (primary screen)
Cells: D.Mel-2 cells from Drosophila
Knock-down reagent: long dsRNA against Drosophila genes
Conditions: infection with dengue virus type 2; dose and infection time not stated
Read-out: 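Cells stained for dengue envelope protein and imaged; percent of infected cells per well on duplicate plates, ranked by infection, with stained nuclei counted for cell number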
Scale: infection score: higher = more virus-infected cells; cell count: higher = more cells in the well
Hit rule: 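Low infection ranks in the two replicates (chance level up to 0.065) followed by a retest with a 1.5-fold or larger significant decrease, p below 0.05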
Calls: active = confirmed: knock-down lowers infection; inactive = not picked or not confirmed

target | dsRNA | infection score, replicate 1 | infection score, replicate 2 | cell count, replicate 1 | cell count, replicate 2 | call
meso18E | DRSC20351 | 2.93 | 2.04 | 5899 | 6327 | inactive
meso18E | DRSC25315 | 2.58 | 1.25 | 6391 | 6239 | inactive
Pdk (Pyruvate dehydrogenase kinase) | DRSC07504 | 14 | 22.6 | 4925 | 5100 | inactive
GstE6 (Glutathione S transferase E6) | DRSC06676 | 4.97 | 16.7 | 5709 | 4838 | inactive
Bre1 | DRSC09742 | 3.57 | 9.44 | 6999 | 6664 | inactive
CG15629 | DRSC00464 | 8.1 | 16.8 | 6891 | 6414 | inactive
CG15629 | DRSC29518 | 14 | 8.04 | 4867 | 3982 | inactive
uno (univalents only) | DRSC07244 | 2.56 | 13.5 | 5901 | 6570 | inactive
uno (univalents only) | DRSC28407 | 9.56 | 7.32 | 4205 | 2651 | inactive
CG6495 | DRSC01993 | 8.02 | 8.41 | 5763 | 5793 | inactive
CG6495 | DRSC29128 | – | – | 464 | 260 | inactive
disp (dispatched) | DRSC12376 | 3.76 | 13.1 | 6540 | 5609 | inactive
CG32548 | DRSC19627 | 1.82 | 6.83 | 6438 | 6665 | inactive
CG32548 | DRSC19982 | 1.08 | 6.97 | 6586 | 6769 | inactive
CG32548 | DRSC28857 | – | – | 271 | 387 | inactive
fs(1)K10 (female sterile (1) K10) | DRSC18775 | 4.24 | 5.8 | 6105 | 6479 | inactive
fs(1)K10 (female sterile (1) K10) | DRSC25258 | 0.33 | 3.16 | 5421 | 5973 | inactive
Mcm5 (Minichromosome maintenance 5) | DRSC16735 | 5.67 | 33 | 5999 | 5835 | inactive
Mcm5 (Minichromosome maintenance 5) | DRSC29514 | – | 8.82 | 371 | 726 | inactive
Dbx | DRSC08271 | 3.23 | 3.02 | 6163 | 6416 | inactive
Dbx | DRSC08394 | 3.25 | 4.05 | 6148 | 5831 | inactive
Dbx | DRSC25311 | 6.29 | 7.96 | 5741 | 5914 | inactive
Dbx | DRSC29604 | 4.4 | 25.4 | 727 | 4483 | inactive
NKAIN (Na,K-ATPase Interacting) | DRSC04531 | 9.14 | 25.8 | 6521 | 5919 | inactive
NKAIN (Na,K-ATPase Interacting) | DRSC22470 | 2.54 | 11.7 | 6693 | 6393 | inactive
NKAIN (Na,K-ATPase Interacting) | DRSC29918 | 23.7 | 9.29 | 6195 | 6480 | inactive
CG4440 | DRSC02747 | 3.54 | 3.57 | 1413 | 5964 | inactive
CG4440 | DRSC28042 | 17.3 | 10.4 | 2962 | 5539 | inactive
CG3860 | DRSC04425 | 17.4 | – | 6361 | – | inactive
insb (insensible) | DRSC06995 | 15.3 | 25.8 | 4152 | 5877 | inactive
insb (insensible) | DRSC24404 | 5.69 | 16.5 | 6009 | 4304 | inactive
htl (heartless) | DRSC16968 | 0.23 | 31.2 | 443 | 5553 | inactive
Mlh1 | DRSC07473 | 3.36 | 11.4 | 6102 | 6417 | inactive
mgl (Megalin) | DRSC17800 | 1.77 | 20.4 | 565 | 3886 | inactive
mgl (Megalin) | DRSC17823 | 1.17 | 1.75 | 5880 | 6473 | inactive
mgl (Megalin) | DRSC17859 | 4.41 | 4.85 | 5471 | 5757 | inactive
mgl (Megalin) | DRSC23464 | 3.26 | 3.78 | 6441 | 6487 | inactive
CG9992 | DRSC20226 | 4.12 | 35.3 | 6233 | 4603 | inactive
CG9992 | DRSC21643 | 1.27 | 2.79 | 5983 | 5910 | inactive

Continued; the last 6 above are carried over.
target | dsRNA | infection score, replicate 1 | infection score, replicate 2 | cell count, replicate 1 | cell count, replicate 2 | call
mgl (Megalin) | DRSC17800 | 1.77 | 20.4 | 565 | 3886 | inactive
mgl (Megalin) | DRSC17823 | 1.17 | 1.75 | 5880 | 6473 | inactive
mgl (Megalin) | DRSC17859 | 4.41 | 4.85 | 5471 | 5757 | inactive
mgl (Megalin) | DRSC23464 | 3.26 | 3.78 | 6441 | 6487 | inactive
CG9992 | DRSC20226 | 4.12 | 35.3 | 6233 | 4603 | inactive
CG9992 | DRSC21643 | 1.27 | 2.79 | 5983 | 5910 | inactive
Mst98Cb (Male-specific RNA 98Cb) | DRSC16750 | 9.8 | 14.6 | 4776 | 6544 | inactive
Mst98Cb (Male-specific RNA 98Cb) | DRSC22495 | 1.55 | 12.1 | 5468 | 5757 | inactive
Mst98Cb (Male-specific RNA 98Cb) | DRSC25707 | 4.58 | 1.9 | 5869 | 6436 | inactive
hop (hopscotch) | DRSC20340 | 1.35 | 0.54 | 6352 | 6515 | inactive
hop (hopscotch) | DRSC23334 | 3.15 | 5.85 | 6165 | 6928 | inactive
hop (hopscotch) | DRSC26551 | 3.21 | 7.23 | 6109 | 5797 | inactive
CG4842 | DRSC10453 | 1.04 | 4.45 | 6062 | 6022 | inactive
Polr3H (RNA polymerase III subunit H) | DRSC10817 | 2.18 | 4.03 | 6110 | 5727 | inactive
CG31921 | DRSC00013 | 6.11 | 3.02 | 6215 | 6058 | inactive
CG30158 | DRSC04956 | 2.78 | 0.96 | 5872 | 5643 | inactive
CG30158 | DRSC04974 | 14.2 | – | 2458 | 412 | inactive
CG30158 | DRSC04975 | – | – | 439 | 461 | inactive
CG30158 | DRSC05012 | – | – | 468 | 418 | inactive
mahe (maheshvara) | DRSC17755 | 0.43 | 26 | 230 | 6380 | inactive
mahe (maheshvara) | DRSC24030 | 2.43 | 10.4 | 5443 | 5473 | inactive
BthD (BthD selenoprotein) | DRSC19395 | 3.74 | 7.01 | 6438 | 6381 | inactive
BthD (BthD selenoprotein) | DRSC25871 | 12.9 | 4.18 | 6237 | 6558 | inactive
MED28 (Mediator complex subunit 28) | DRSC15721 | 11.2 | 20.5 | 4818 | 4953 | inactive
CG7115 | DRSC02000 | 5.24 | 21.6 | 6207 | 4641 | inactive
CG7115 | DRSC29878 | 9.05 | 11.2 | 6065 | 6166 | inactive
